Results deposited as PubChem BioAssay AID504761 (Drosophila RNAi Screening Center, 2011)

- Aim: 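Fly genes whose silencing reduces dengue virus type 2 infection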 (primary screen)
- Cells: D.Mel-2 cells from Drosophila
- Knock-down reagent: long dsRNA against Drosophila genes
- Treatment: infection with dengue virus type 2; dose and infection time not stated
- Measurement: 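Per well on two replicate plates, imaging gave the percent of cells positive for viral envelope protein, ranked by infection, and a nuclear count of cells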
- Reading the numbers: infection score: higher = more virus-infected cells; cell count: higher = more cells in the well
- Hit rule: 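Very low infection ranking in both replicate wells (chance probability at most 0.065), then a retest showing infection dropped 1.5-fold or more at p below 0.05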
- Meaning of the calls: active = confirmed: knock-down lowers infection; inactive = not picked or not confirmed
The deposit covers about 22,000 reagents; shown is an unselected part of those with a known target gene and a result. Over the whole deposit, 116 (0.52%) were called active. 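Calls depend on retest data that are not deposited; infection was ranked per plate without normalising between plates; the unit of the infection score is not given.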 Raw values vary from plate to plate and are shown uncorrected. Entries without a mark were called inactive. Names joined by + are all predicted targets of the reagent. Not given: the amount of reagent, the time to read-out.

| gene | amplicon | infection score, replicate 1 | infection score, replicate 2 | cell count, replicate 1 | cell count, replicate 2 |
| --- | --- | --- | --- | --- | --- |
| CG4572 | DRSC15603 | 12 | 2.7 | 6493 | 7159 |
| Cyp4c3 (Cytochrome P450 4c3) | DRSC16631 | 2.15 | 3.6 | 5909 | 6172 |
| Cyp4c3 (Cytochrome P450 4c3) | DRSC23642 | 3.54 | 2.08 | 6272 | 6051 |
| pst (pastrel) | DRSC11003 | 7.52 | 2.43 | 6384 | 6754 |
| CG11663 | DRSC23063 | 0.29 | 3.22 | 6468 | 6592 |
| CG11703 | DRSC14356 | 8.63 | 4.54 | 6374 | 6359 |
| CG11703 | DRSC26507 | 3.03 | 1.08 | 6329 | 5855 |
| CG1227 | DRSC12534 | 17.2 | 23 | 4445 | 5686 |
| CG1227 | DRSC25952 | 5.55 | 0.79 | 6562 | 6321 |
| fdl (fused lobes) | DRSC07279 | 8.06 | 15.5 | 6812 | 5047 |
| fdl (fused lobes) | DRSC26852 | 1.69 | 2.18 | 6443 | 6364 |
| sav (salvador) | DRSC14681 | 4.03 | 2.41 | 6484 | 6629 |
| sav (salvador) | DRSC14682 | 3.52 | 0.37 | 6781 | 7222 |
| CG30161 | DRSC22141 | 0.68 | 1.65 | 6758 | 6921 |
| snk (snake) | DRSC17060 | 1.18 | 7.47 | 6466 | 6261 |
| CG7408 | DRSC10841 | 3.64 | 4.47 | 6290 | 6084 |
| Daao1 (D-amino acid oxidase 1) | DRSC06131 | 5.55 | 8.27 | 6744 | 5878 |
| Rbbp5 (Retinoblastoma binding protein 5) | DRSC11778 | 13.2 | 11.9 | 4907 | 6029 |
| slp1 (sloppy paired 1) | DRSC00835 | 0.63 | 7.93 | 6644 | 4601 |
| slp1 (sloppy paired 1) | DRSC24204 | 0.82 | 4.02 | 6220 | 6516 |
| CG14830 | DRSC08876 | 2.94 | 0.97 | 6257 | 5954 |
| CG14830 | DRSC10200 | 2.28 | 1.78 | 6454 | 5858 |
| CG14830 | DRSC26586 | 1.96 | 4.85 | 7032 | 5690 |
| His3:CG33818 + His3:CG33857 + His3:CG33806 + 20 more | DRSC21267 | 3.68 | 0.67 | 1006 | 1051 |
| Uhg4 + snoRNA:Psi28S-2949 | DRSC36561 | 0.63 | 22.1 | 6528 | 5241 |
| qsm (quasimodo) | DRSC05896 | 4.92 | 4.35 | 6447 | 6394 |
| qsm (quasimodo) | DRSC06393 | 0.58 | 2.5 | 6018 | 6122 |
| qsm (quasimodo) | DRSC25212 | 1.31 | 3.05 | 6274 | 6032 |
| CG12096 | DRSC21692 | 0.81 | 8.4 | 6301 | 7062 |
| CG12096 | DRSC27886 | 8.54 | 7.08 | 6724 | 6103 |
| fend (forked end) | DRSC17601 | 11.3 | 3.6 | 6345 | 6175 |
| fend (forked end) | DRSC17867 | 6.34 | 3.05 | 6123 | 6305 |
| mRpL50 (mitochondrial ribosomal protein L50) | DRSC11015 | 3.64 | 4.81 | 5985 | 6336 |
| mRpL50 (mitochondrial ribosomal protein L50) | DRSC29216 | 0.31 | 13.2 | 326 | 2280 |
| SdhAL (Succinate dehydrogenase, subunit A (flavoprotein)-like) | DRSC10539 | 12.8 | 28.3 | 5249 | 4940 |
| CG17826 | DRSC10289 | 5.54 | 6.66 | 6874 | 6873 |
| CG17826 | DRSC28654 | 13.3 | 35.5 | 4467 | 5072 |
| Acsx1R (Acyl-CoA synthetase X1 R) | DRSC14339 | 3.65 | 13 | 767 | 4946 |
| l(1)G0004 (lethal (1) G0004) | DRSC20486 | 3.27 | 2.59 | 5840 | 5937 |
| CG8997 | DRSC01900 | 10.6 | 3.17 | 4781 | 5896 |
| CG8997 | DRSC28002 | 13.4 | 2.95 | 3150 | 6681 |
| pum (pumilio) | DRSC12726 | 4.92 | 7.31 | 6037 | 5129 |
| pum (pumilio) | DRSC17038 | 1.73 | 6.62 | 6928 | 6632 |
| pum (pumilio) | DRSC22758 | 1.79 | – | 6086 | 472 |
| pum (pumilio) | DRSC22794 | 3.11 | 16.8 | 5951 | 5366 |
| pum (pumilio) | DRSC23430 | 10.3 | 1.85 | 5518 | 6172 |
| amon (amontillado) | DRSC13784 | 2.65 | 1.35 | 5773 | 5331 |
| amon (amontillado) | DRSC16900 | – | 6.85 | 355 | 1620 |
| CG8785 | DRSC07266 | 4.16 | 6.75 | 6658 | 6649 |
| CG4404 | DRSC19897 | 2.16 | 7.9 | 742 | 1126 |
| CG4404 | DRSC23956 | 2.95 | 2.76 | 7024 | 6997 |
| CG13766 | DRSC02271 | 8.84 | 3.79 | 5704 | 6517 |
| CG13766 | DRSC29049 | 16.1 | 22.4 | 4221 | 5039 |
| Cyp4ac1 (Cytochrome P450 4ac1) | DRSC03302 | 0.48 | 2.55 | 6240 | 7086 |
| Epp (Ecdysteroid phosphate phosphatase) | DRSC14607 | 4.06 | 4.3 | 6251 | 6714 |
| Epp (Ecdysteroid phosphate phosphatase) | DRSC29249 | 9.78 | 28.7 | 4122 | 5317 |
| CG8908 | DRSC07297 | 2.41 | 4.59 | 6091 | 5756 |
| Socs36E (Suppressor of cytokine signaling at 36E) | DRSC02455 | 36.6 | 28.2 | 6232 | 6544 |
| Socs36E (Suppressor of cytokine signaling at 36E) | DRSC27917 | 16.4 | 6.91 | 5316 | 6574 |

Look-ups from above.
Under “cell count, replicate 1”, sav (salvador) [DRSC14681] is entered as 6484
Entry of fdl (fused lobes) [DRSC07279] in “cell count, replicate 2”: 5047
For “cell count, replicate 2”, fdl (fused lobes) [DRSC26852] shows 6364
Under “cell count, replicate 2”, Epp (Ecdysteroid phosphate phosphatase) [DRSC29249] shows 5317
pst (pastrel) [DRSC11003], infection score, replicate 1 → 7.52
amon (amontillado) [DRSC16900], cell count, replicate 2 → 1620
